Test results reported in patent publication US10023484B2, “Use of peracetic acid/hydrogen peroxide and peroxide-reducing agents for treatment of drilling fluids, frac fluids, flowback water and disposal water” (Ecolab USA Inc., priority 2012, dated 2018).

How the values were obtained:
[1] = Wheel box corrosion test, weight loss of 1018 carbon steel coupon; settings: 1000 ppm catalase added to PAA/H2O2 treatment, 24 hours
[2] = Catalase (ES2000) amount needed in treated water source, iodometric titration (Example 15); format: physicochemical
Protocol: Field of use applications were analyzed to determine the amount of a peroxide-reducing enzyme necessary to obtain desired concentrations of both peracid and hydrogen peroxide in a treated water source. EnviroSan (POAA) peracid composition was added to water to reach the targeted POAA concentrations set forth in Table 18, and the concentration of both POAA and H2O2 were confirmed by iodometric titration. Then catalase (ES2000) was added to the solution, and the sample was stored under ambient conditions. The concentration of POAA and H2O2 were monitored by the iodometric conditions.

Substance: Catalase
- reduction in corrosion rates ([1]; deionized water): ~60%
- decrease of corrosion rates of 1018 carbon steel ([1]; produced water): 30-50%
- catalase level sufficient for treating the water source [2]: ~1 ppm
- selectivity of H2O2 decomposition versus POAA ([2]; ambient conditions): selectively decomposes the H2O2
- lowest catalase level that treated pond water with POAA and H2O2 ([2]; within 4 hours): 0.5 ppm
